The test deals with endogenous TRAF6 of LPS-treated macrophages / Rv2626c-expressing cells. In words: cell-based or functional assay.

The results in this text go back to patent US20220218583A1.

rRv2626c-WT: the IC50 (inflammatory response of LPS-treated macrophages, FIG. 14) was found to be 2.5 µg/mL.
